A mixed list of measured activities; the numbers were collected in NIAID ChemDB.

All rows: tests in culture; species: Candida krusei

A number after MIC or MFC names an inhibition level or a share of isolates. Blank or dashed fields: not listed here. Inhibition is in % at the dose shown (toxicity tests: loss of growth or viability). Two numbers with a dash give a range or band. Zones are inhibition diameters on agar. Neighbouring rows are from separate reports. ECn: concentration that inhibits the pathogen or its effect by n%.

SMILES | strain or isolate | method | setting | read-out | dose | value
O=[N+]([O-])c1cc(CSc2nnnn2Cc2ccccc2)cc([N+](=O)[O-])c1 | E28 | broth dilution | 48 h | EC80 |  | >500 µM
Cc1ccc(O)cc1 |  | broth dilution |  | MIC |  | 880 µg/mL
CC(C)=CCOc1ccc(C2CC(=O)c3c(O)cc(O)cc3O2)cc1O |  | agar diffusion / agar |  | zone | 100 µg/mL | 0 mm
C[C@@H](c1ncncc1F)[C@](O)(Cn1cncn1)c1ccc(F)cc1F | 17 isolates |  |  | MIC90 |  | 1 µg/mL
Oc1ccccc1 |  | broth dilution |  | MIC |  | >45260 µg/mL
C[C@@H]1[C@H](O)[C@@H](C)/C=C/C=C/CC/C=C/C=C/C=C/C=C/C(O[C@H]2O[C@H](C)[C@@H](O)[C@H](N)[C@@H]2O)CC2O[C@](O)(CC(O)C(O)CCC(O)CC(O)CC(O)CC(=O)O[C@H]1C)CC(O)C2C(=O)O | CBS 573 | broth dilution |  | MIC |  | 3.9 µg/mL
COc1cc(C)ccc1O |  | broth dilution |  | MIC |  | 1790 µg/mL
O=[N+]([O-])c1cc(C[Se]c2nnnn2Cc2ccccc2)cc([N+](=O)[O-])c1 | E28 | broth dilution | 48 h | EC80 |  | >500 µM
O=c1c(O)c(-c2ccccc2)oc2cc(O)cc(O)c12 |  | broth dilution |  | MIC |  | 5 µg/mL
Cc1ccc(C(C)C)c(O)c1 | PYCC 3341 | broth dilution / turbidity |  | EC50 |  | 0.48 µM
C[C@@H]1[C@H](O)[C@@H](C)/C=C/C=C/CC/C=C/C=C/C=C/C=C/C(O[C@H]2O[C@H](C)[C@@H](O)[C@H](N)[C@@H]2O)CC2O[C@](O)(CC(O)C(O)CCC(O)CC(O)CC(O)CC(=O)O[C@H]1C)CC(O)C2C(=O)O |  | agar diffusion / agar |  | zone | 100 µg/mL | 0 mm
Nc1nc(=O)n([C@H]2CS[C@@H](CO)O2)cc1F | 17 isolates |  |  | MIC90 |  | 64 µg/mL
C=CCc1ccc(OC)c(OC)c1 |  | broth dilution |  | MIC |  | 1280 µg/mL
C[C@@H]1[C@H](O)[C@@H](C)/C=C/C=C/CC/C=C/C=C/C=C/C=C/C(O[C@H]2O[C@H](C)[C@@H](O)[C@H](N)[C@@H]2O)CC2O[C@](O)(CC(O)C(O)CCC(O)CC(O)CC(O)CC(=O)O[C@H]1C)CC(O)C2C(=O)O | ATCC 40147 | broth dilution |  | MFC100 |  | 64 µg/mL
COc1cc(C[C@H](C)[C@H](C)Cc2ccc(O)c(O)c2)ccc1O | CCC 117-2000 | broth dilution |  | MIC50 |  | 62.5 µg/mL
C[C@@H]1[C@H](O)[C@@H](C)/C=C/C=C/CC/C=C/C=C/C=C/C=C/C(O[C@H]2O[C@H](C)[C@@H](O)[C@H](N)[C@@H]2O)CC2O[C@](O)(CC(O)C(O)CCC(O)CC(O)CC(O)CC(=O)O[C@H]1C)CC(O)C2C(=O)O | ATCC 40147 | broth dilution |  | MIC100 |  | >1024 µg/mL
O=[N+]([O-])c1cc(CSc2nnnn2C2CCCCC2)cc([N+](=O)[O-])c1 | E28 | broth dilution | 24 h | EC80 |  | >500 µM
O=C(O)/C=C/c1ccccc1 | PYCC 3341 | broth dilution / turbidity |  | EC50 |  | 0.29 µM
O=[N+]([O-])c1ccc(C[Se]c2nnnn2C2CCCCC2)c([N+](=O)[O-])c1 | E28 | broth dilution | 24 h | EC80 |  | >500 µM
C=CCc1ccc(OC)cc1 |  |  |  | MIC90 |  | 0.016–0.025 µg/mL
O=C(O)c1ccccc1 | PYCC 3341 |  |  | EC50 |  | 0.71 µM
C[C@H]1[C@H](O)[C@@H](C)/C=C/C=C/C=C/C=C/C=C/C=C/C=C/[C@H](O[C@@H]2O[C@H](C)[C@@H](O)[C@H](N)[C@@H]2O)C[C@@H]2O[C@](O)(C[C@@H](O)C[C@@H](O)CC[C@H](O)[C@@H](O)C[C@@H](O)CC(=O)O[C@H]1C)C[C@H](O)[C@H]2C(=O)O | E28 | broth dilution |  | inhibition | 1 µM | 80%
C=CCc1ccc(O)c(-c2cc(CC=C)ccc2O)c1 |  | broth dilution |  | MIC |  | 10 µg/mL
Cc1ccccc1O |  | broth dilution |  | MIC |  | 1050 µg/mL
O=C(O)c1cccc(-n2nnnc2SCc2cc([N+](=O)[O-])cc([N+](=O)[O-])c2)c1 | E28 | broth dilution | 24 h | EC80 |  | >500 µM
C/C=C/c1ccc(O)c(OC)c1 |  | broth dilution |  | MIC |  | 220 µg/mL
c1ccc([Se][Se]c2ccccc2)cc1 | ATCC 6258 | broth dilution |  | MFC |  | >64 µg/mL

2 of the rows above, restated:

SMILES	strain or isolate	method	setting	read-out	dose	value
CC(C)=CCOc1ccc(C2CC(=O)c3c(O)cc(O)cc3O2)cc1O		agar diffusion / agar		zone	100 µg/mL	0 mm
O=[N+]([O-])c1ccc(C[Se]c2nnnn2C2CCCCC2)c([N+](=O)[O-])c1	E28	broth dilution	24 h	EC80		>500 µM